The values below are quoted from earlier work in US7205435B2 (priority 2001, dated 2007).

By UniProt entry, the sequences of proteins in these tests, tags left out.
UniProt P10844, whole entry, looked up: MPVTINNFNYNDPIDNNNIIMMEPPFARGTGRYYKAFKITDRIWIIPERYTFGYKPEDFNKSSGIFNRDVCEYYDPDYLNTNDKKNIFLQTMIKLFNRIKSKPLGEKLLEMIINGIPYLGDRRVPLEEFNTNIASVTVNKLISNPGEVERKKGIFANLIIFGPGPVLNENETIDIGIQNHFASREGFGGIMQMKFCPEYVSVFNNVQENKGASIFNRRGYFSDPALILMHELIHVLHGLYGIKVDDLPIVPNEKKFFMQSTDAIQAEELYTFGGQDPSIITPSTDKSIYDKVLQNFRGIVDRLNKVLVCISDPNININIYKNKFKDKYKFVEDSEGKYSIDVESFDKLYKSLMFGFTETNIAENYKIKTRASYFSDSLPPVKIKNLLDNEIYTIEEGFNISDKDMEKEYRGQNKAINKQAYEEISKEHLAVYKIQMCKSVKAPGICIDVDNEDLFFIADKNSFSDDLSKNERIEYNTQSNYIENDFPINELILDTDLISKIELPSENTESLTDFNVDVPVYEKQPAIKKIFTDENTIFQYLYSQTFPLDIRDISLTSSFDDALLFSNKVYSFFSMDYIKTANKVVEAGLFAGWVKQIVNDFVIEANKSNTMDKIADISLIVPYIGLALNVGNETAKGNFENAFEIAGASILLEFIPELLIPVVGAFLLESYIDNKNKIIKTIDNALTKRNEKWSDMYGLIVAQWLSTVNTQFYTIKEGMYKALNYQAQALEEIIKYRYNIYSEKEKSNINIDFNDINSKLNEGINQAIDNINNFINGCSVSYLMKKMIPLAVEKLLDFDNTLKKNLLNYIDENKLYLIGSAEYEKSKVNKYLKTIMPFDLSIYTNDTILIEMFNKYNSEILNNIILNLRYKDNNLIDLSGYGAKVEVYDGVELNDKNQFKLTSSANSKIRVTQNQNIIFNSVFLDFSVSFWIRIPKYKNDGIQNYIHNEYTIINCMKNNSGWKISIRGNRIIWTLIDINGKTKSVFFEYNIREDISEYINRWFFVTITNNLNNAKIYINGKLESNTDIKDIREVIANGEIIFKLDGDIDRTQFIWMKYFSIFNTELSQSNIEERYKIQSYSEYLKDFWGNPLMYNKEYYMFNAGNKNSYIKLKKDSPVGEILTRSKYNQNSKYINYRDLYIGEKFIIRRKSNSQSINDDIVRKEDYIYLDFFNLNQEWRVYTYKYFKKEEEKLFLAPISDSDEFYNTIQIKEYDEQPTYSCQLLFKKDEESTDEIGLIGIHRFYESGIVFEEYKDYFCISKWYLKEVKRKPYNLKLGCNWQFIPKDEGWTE

The target of the series is BoNT/B (Clostridium botulinum, UniProt P10844).

Usually IC50 stands for the concentration needed to halve the response being measured. For “7-N-phenylcarbamoylamino-4-chloro-3-propyloxycoumarin [ICD 1578]”, the IC50 was 27 µM.
